Data as given in US20220315628A1.

B1: A. tumefaciens ClpS2 [Pro34 Met35 Ser36], expressed in and purified from E. coli (designed binder)
chain: MGHHHHHHENLYFQGSDSPVDLKPKPKVKPKLERPKLYKVMLLNDDYTPMSFVTVVLKAVFRMSEDTGRRVMMTAHRFGSAVVVVCERDIAETKAKEATDLGKEAGFPLMFTTEPEE
B2: A. tumefaciens ClpS2 [Cys34 Pro35 Ser36], expressed in and purified from E. coli (designed binder)
chain: B1 chain with P49C, M50P

Key:
[1] = target: F1G2 peptide (XGVECK-biotin with X = Phe); assay: SPR; KD for the Phe peptide divided by KD for the Trp peptide
[2] = target: Y1G2 peptide (XGVECK-biotin with X = Tyr); assay: SPR; KD for the Tyr peptide divided by KD for the Tyr peptide
[3] = target: Y1G2 peptide (XGVECK-biotin with X = Tyr)
[4] = target: W1G2 peptide (XGVECK-biotin with X = Trp)
[5] = target: F1G2 peptide (XGVECK-biotin with X = Phe)
[6] = target: F1G2 peptide (XGVECK-biotin with X = Phe); assay: in vitro surface binding assays (SPR)
[7] = target: Y1G2 peptide (XGVECK-biotin with X = Tyr); assay: SPR dissociation curves; biotinylated peptide on streptavidin chip
[8] = target: W1G2 peptide (XGVECK-biotin with X = Trp); assay: as above
[9] = target: F1G2 peptide (XGVECK-biotin with X = Phe); assay: as above
[10] = target: W1G2 peptide (XGVECK-biotin with X = Trp); assay: SPR; KD for the Trp peptide divided by KD for the Trp peptide
[11] = target: F1G2 peptide (XGVECK-biotin with X = Phe); assay: SPR dissociation curves
[12] = target: W1G2 peptide (XGVECK-biotin with X = Trp); assay: SPR; KD for the Trp peptide divided by KD for the Tyr peptide
[13] = target: Y1G2 peptide (XGVECK-biotin with X = Tyr); assay: SPR; KD for the Tyr peptide divided by KD for the Trp peptide
[14] = target: Y1G2 peptide (XGVECK-biotin with X = Tyr); assay: SPR; KD for the Tyr peptide divided by KD for the Phe peptide
[15] = target: F1G2 peptide (XGVECK-biotin with X = Phe); assay: SPR; KD for the Phe peptide divided by KD for the Tyr peptide
[16] = target: W1G2 peptide (XGVECK-biotin with X = Trp); assay: SPR; KD for the Trp peptide divided by KD for the Phe peptide
[17] = target: F1G2 peptide (XGVECK-biotin with X = Phe); assay: SPR; KD for the Phe peptide divided by KD for the Phe peptide
[18] = target: W1G2 peptide (XGVECK-biotin with X = Trp); assay: SPR dissociation curves

Binder | Selectivity for Phe, Phe/Trp [1] | Selectivity for Tyr, Tyr/Tyr [2] | Kd [3] [µM] | Kd [4] [µM] | Kd [5] [µM] | fold tighter binding relative to wild-type ClpS [6] [fold] | koff [7] [s⁻¹] | koff [8] [s⁻¹] | koff [9] [s⁻¹] | Selectivity for Trp, Trp/Trp [10] | fold slowing of the dissociation rate over the wild-type protein [11] [fold] | Selectivity for Trp, Trp/Tyr [12] | Selectivity for Tyr, Tyr/Trp [13] | Selectivity for Tyr, Tyr/Phe [14] | Selectivity for Phe, Phe/Tyr [15] | Selectivity for Trp, Trp/Phe [16] | Selectivity for Phe, Phe/Phe [17] | fold slowing of the dissociation rate over wild-type [18] [fold] | fold slowing of the dissociation rate over wild-type [11] [fold]
B1 | 0.14 | 1 | 11.6 | 13.1 | 1.8 | 7 | 0.5 | 0.76 | 0.1 | 1 | 9.4 | 1.13 | 0.88 | 6.43 | 0.16 | 7.28 | 1 |  | 
B2 | 1.32 | 1 | 36.1 | 2.8 | 3.7 |  | 0.05 | 0.03 | 0.03 | 1 |  | 0.08 | 12.9 | 9.82 | 0.1 | 0.76 | 1 | 51.3 | 27.9

Where a chain is given by its changes, count along the chain named.
